This is an account of results in article PMC11142717, “Structure and flexibility of the DNA polymerase holoenzyme of vaccinia virus” (2024).

This assay addresses VACV E9 with an uncleaved His-tag (isolated polymerase, construct of ref. 21), vaccinia virus (VACV), P20509 2-1006. Briefly: BLI.

As to “A20(304-426), C-terminal domain of VACV A20”, the result is listed as “binds”.
